{"source": "PubChem BioAssay AID624099 – ICCB-Longwood, 2012", "assay": "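Knock-downs relieving repression by E2 of an HPV18 LCR luciferase reporter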 (primary screen)", "cell system": "human C33A cervical carcinoma cells (HPV-negative) stably expressing BPV1 E2 and an HPV18 LCR luciferase reporter", "reagents": "siRNA pool against human genes, 40 nM", "duration": "72 h", "read-out": "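HPV18 LCR reporter light per well, converted to plate-wise z-scores that exclude control wells, and averaged over triplicate plates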", "reading the numbers": "mean z-score and z-score: higher = stronger reporter signal, weaker E2 silencing", "rule for the call": "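Mean z ≥ 2 together with z ≥ 2 in two or more of the three replicates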", "note": "The deposit covers about 21,000 reagents; below is an unselected part. 497 of all reagents (2.4%) count as active. 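Higher z means weaker E2 silencing; only reporter increases were scored, and knock-downs that hurt cell survival may mask genuine repressor factors.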"}
{"gene":"FLJ23865 (retired record) (GeneID 200317)","mean z-score":1.66,"z-score, replicate A":1.87,"z-score, replicate B":1.92,"z-score, replicate C":1.19,"Outcome":"inactive"}
{"gene":"NFAM1 (GeneID 150372)","mean z-score":0.33,"z-score, replicate A":0.28,"z-score, replicate B":0.45,"z-score, replicate C":0.28,"Outcome":"inactive"}
{"gene":"LMAN2 (GeneID 10960)","mean z-score":-1.09,"z-score, replicate A":-0.62,"z-score, replicate B":-1.23,"z-score, replicate C":-1.42,"Outcome":"inactive"}
{"gene":"KLHL40 (GeneID 131377)","mean z-score":-1.46,"z-score, replicate A":-1.21,"z-score, replicate B":-1.52,"z-score, replicate C":-1.64,"Outcome":"inactive"}
{"gene":"ABTB1 (GeneID 80325)","mean z-score":0.47,"z-score, replicate A":0.56,"z-score, replicate B":0.42,"z-score, replicate C":0.43,"Outcome":"inactive"}
{"gene":"OR2V2 (GeneID 285659)","mean z-score":-1.03,"z-score, replicate A":-1,"z-score, replicate B":-1.19,"z-score, replicate C":-0.92,"Outcome":"inactive"}
{"gene":"ZNF24 (GeneID 7572)","mean z-score":-0.78,"z-score, replicate A":-0.15,"z-score, replicate B":-1.07,"z-score, replicate C":-1.13,"Outcome":"inactive"}
{"gene":"POMP (GeneID 51371)","mean z-score":-0.78,"z-score, replicate A":0.09,"z-score, replicate B":-0.31,"z-score, replicate C":-2.12,"Outcome":"inactive"}
{"gene":"EIF2AK3 (GeneID 9451)","mean z-score":0.75,"z-score, replicate A":0.61,"z-score, replicate B":0.95,"z-score, replicate C":0.68,"Outcome":"inactive"}
{"gene":"LOC389443 (retired record) (GeneID 389443)","mean z-score":0.22,"z-score, replicate A":0.26,"z-score, replicate B":0.17,"z-score, replicate C":0.23,"Outcome":"inactive"}
{"gene":"SERHL (GeneID 94009)","mean z-score":0.9,"z-score, replicate A":0.97,"z-score, replicate B":0.55,"z-score, replicate C":1.19,"Outcome":"inactive"}
{"gene":"SHOC1 (GeneID 158401)","mean z-score":-0.77,"z-score, replicate A":-0.43,"z-score, replicate B":-0.86,"z-score, replicate C":-1.02,"Outcome":"inactive"}

2 entries from above in another layout.
| gene | mean z-score | z-score, replicate A | z-score, replicate B | z-score, replicate C | Outcome |
| --- | --- | --- | --- | --- | --- |
| POMP (GeneID 51371) | -0.78 | 0.09 | -0.31 | -2.12 | inactive |
| EIF2AK3 (GeneID 9451) | 0.75 | 0.61 | 0.95 | 0.68 | inactive |
